A mixed list of measured activities; the numbers were collected in NIAID ChemDB.

Common to all: growth or infection tests; agent: Mycobacterium tuberculosis

An empty or dashed field is not shown. Percent inhibition refers to the dose given; in toxicity tests it is the harm to the cells. MIC bound: limit read from a one-dose screen. ECn is the concentration giving n% inhibition of infection, replication or growth. Rows are shuffled and stem from different studies.

SMILES | strain or isolate | read-out | dose | method | cells | result
CCOC(=O)Nc1cc(N)c2c(n1)OCC(c1ccc(OC)cc1)=N2 | H37Rv | inhibition | 12.5 µg/mL |  |  | 0%
Cc1nc2c(c(=O)[nH]1)OCN(Cc1ccccc1)C2 | H37Rv | MIC bound |  | BACTEC |  | >12.5 µg/mL
Fc1ccccc1CCNCCNCCc1ccccc1F |  | MIC |  |  |  | 25 µM
NC(=O)c1ccco1 | H37Rv | MIC |  |  |  | >100 µg/mL
CC(C)=CCC/C(C)=C/COc1ccc(/C=C2\C(=O)N(O)[C@@H](C)C(=O)N2O)cc1 | PAS-R | MIC |  |  |  | 12.5 µg/mL
COc1ccc(CCNCCNC[C@]2(C)CCC[C@]3(C)c4ccc(C(C)C)cc4CC[C@@H]23)cc1OC |  | MIC |  |  |  | 6.25 µM
Cc1cc(N)cc(C)c1S(=O)(=O)O | H37Rv | MIC |  |  |  | >100 µg/mL
c1ccc(CNCCNCc2ccco2)cc1 |  | MIC |  |  |  | 50 µM
C=CCN1CCCC(COC(=O)c2ccc([N+](=O)[O-])cc2)C1 | H37Rv | MIC |  |  |  | >100 µg/mL
CC1CCCC(NCCNCC23CC4CC(CC(C4)C2)C3)C1C |  | MIC |  |  |  | 9.4 µM
O=C(CC(=O)c1ccccc1)Nc1ccc(O)cc1 | H37Rv | MIC |  |  |  | >100 µg/mL
O=C1N(c2nncs2)CCN1[N+](=O)[O-] | H37Rv | inhibition | 12.5 µg/mL | BACTEC |  | 99%
OCCN(CC(F)F)c1ccccc1 | H37Rv | MIC |  |  |  | >100 µg/mL
CN1C(=O)N(C)C2CC(=O)c3ccc(C(F)(F)F)cc3N2C1=O | H37Rv | MIC |  | BACTEC |  | ≥12.5 µg/mL
NCC[C@H](O)C(=O)N[C@@H]1C[C@H](N)[C@@H](O[C@H]2O[C@H](CN)[C@@H](O)[C@H](O)[C@H]2O)[C@H](O)[C@H]1O[C@H]1O[C@H](CO)[C@@H](O)[C@H](N)[C@H]1O | TN933 (CB) | MIC |  |  |  | 8 µg/mL
Cc1cc(=O)n(-c2ccc(S(=O)(=O)N=C(N)N)cc2)c(C)c1C(=O)O | H37Rv | inhibition | 12.5 µg/mL | BACTEC |  | 71%
c1ccc(CCCNCCNC(c2ccccc2)c2ccccc2)cc1 |  | MIC |  |  |  | 50 µM
COc1ccc(CCN2C(=O)C(=O)N(c3cccc(Cl)c3)C2=O)cc1OC | H37Rv | MIC bound |  | BACTEC |  | >12.5 µg/mL
Cc1ccc(Nc2cc(S(=O)(=O)[O-])c3c4c(cc(=O)n3C)-c3ccccc3C(=O)c24)c(S(=O)(=O)[O-])c1.[Na+].[Na+] | H37Rv | MIC |  |  |  | >100 µg/mL
CC(C)CC(C)NCCNCCCCc1ccccc1 |  | MIC |  |  |  | 50 µM
CCOC(=O)Nc1cc2[nH]c(-c3ccccc3)nc2c(N)n1 | H37Rv | EC50 |  |  |  | >12.5 µg/mL
C1CCCC(NCCNC2CCCCCCC2)CCC1 |  | MIC |  |  |  | 12.5 µM
Cc1nn(C(=O)Cc2ccccc2)c2c1C(c1ccc(Cl)cc1)SC(N)=N2 | H37Rv | inhibition | 12.5 µg/mL | BACTEC |  | 21%
CN(C)c1ccc(/C=C/c2ccc3ccccc3n2)cc1 | H37Rv | MIC |  |  |  | >100 µg/mL
CCOC(=O)Nc1cc2ncc(-c3ccccc3)nc2c(NC(C)=O)n1 | H37Rv | EC50 |  |  |  | >12.5 µg/mL
OC(CNCc1ccccc1)c1ccccc1 | H37Rv | MIC |  |  |  | >100 µg/mL
NC(=O)C#CC(N)=O | H37Rv | MIC |  | BACTEC | VERO | 3.13 µg/mL
O=C1CCC(=O)N1C1CCCCC1 | H37Rv | MIC |  |  |  | >100 µg/mL
CCOC(=O)Nc1cc2nc(C)c(C(C)c3ccc(OC)cc3)nc2c(N)n1 | H37Rv | EC50 |  |  |  | <12.5 µg/mL
c1ccc(C(CNCCNC2CCCCCCC2)c2ccccc2)cc1 |  | MIC |  |  |  | 3.13 µM
O=C(O)CNC1=C(Cl)C(=O)c2ccccc2C1=O | H37Rv | inhibition | 12.5 µg/mL | BACTEC |  | 32%
O=[N+]([O-])c1ccc2c(c1)S(=O)(=O)c1cc([N+](=O)[O-])ccc1O2 | H37Rv | MIC |  |  |  | 100 µg/mL
CCC(C)C(NC(=O)CNC(=O)CNC(=O)OCc1ccccc1)C(=O)O | H37Rv | MIC bound |  | BACTEC |  | >12.5 µg/mL
CN(C)CCC(=O)c1ccc(Cl)cc1 | H37Rv | MIC |  |  |  | >100 µg/mL
CN(C)c1ccc(-c2nnc3c(c(=O)n(C)c(=O)n3C)[n+]2[O-])cc1 | H37Rv | MIC |  | BACTEC |  | 1.56 µg/mL
Nc1c(N=Nc2ccc(Cc3ccc(N=Nc4c(O)ccc5ccccc45)cc3)cc2)cc(S(=O)(=O)[O-])c2ccccc12.[Na+] | H37Rv | MIC |  |  |  | >100 µg/mL
Nc1ccc2nc3ccc(O)cc3nc2c1.S.[Na+].[Na+].[SH-] | H37Rv | MIC bound |  | BACTEC |  | >12.5 µg/mL
Cc1cc[c]([Sb]([c]2ccc(C)cc2)[c]2ccc(C)cc2)cc1 | H37Rv | MIC |  |  |  | >100 µg/mL
Cc1ccc(NC(=O)CC/C(CC(=O)c2ccc(Cl)cc2)=N\NC(=O)C(=O)NN)cc1C | H37Rv | inhibition | 12.5 µg/mL | BACTEC |  | 21%
Nc1ccc(S(=O)(=O)c2ccccc2Cl)cc1 | H37Rv | MIC |  |  |  | 25 µg/mL
CCOC(OCC)c1ccc(-n2c(N)c(C#N)cnc2=S)c2c1OC2=NC=C(C#N)C#N | H37Rv | inhibition | 12.5 µg/mL | BACTEC |  | 71%
O=Cc1ccc(O)cc1O | H37Rv | MIC |  |  |  | 100 µg/mL
CCOC(=O)Nc1cc(N(C)C/C(=N\O)c2ccc(OC)cc2)c([N+](=O)[O-])c(N)n1 | H37Rv | inhibition | 12.5 µg/mL |  |  | 2%
CC(C)c1ccc(/C=C2\CSC/C(=C/c3ccc(C(C)C)cc3)C2=O)cc1 | H37Rv | MIC bound |  | BACTEC |  | >12.5 µg/mL
C[C@@H]1[C@@H](NCCNC2CCCCCCC2)C[C@H]2C[C@@H]1C2(C)C |  | MIC |  |  |  | 12.5 µM
CO[C@H]1/C=C/O[C@@]2(C)Oc3c(C)c(O)c4c(=O)c(c5oc6cc(N7CCN(C(C)C)CC7)cc(=O)c6nc5c4c3=C2O)NC(=O)/C(C)=C\C=C\[C@H](C)[C@H](O)[C@@H](C)[C@@H](O)[C@@H](C)[C@H](OC(C)=O)[C@@H]1C | 2847 (rifampin-sensitive) | MBC |  |  |  | 0.2 µg/mL
COc1cccc(O)c1 | H37Rv | MIC |  |  |  | 50 µg/mL
C[C@H](NCCNCCc1ccc(Cl)cc1Cl)C1CCCCC1 |  | MIC |  |  |  | 50 µM
COc1ccc2c(=O)oc3c(OC)cc(CCN(C)C)c4c(=O)oc1c2c34 | H37Rv | inhibition | 128 µg/mL | BACTEC |  | 99%
COC(=O)c1cc(Br)cc(Br)c1N | H37Rv | MIC |  |  |  | 100 µg/mL
COc1cc(-c2c(C)oc(C)c2C(C)=O)ccc1OCc1ccccc1 | H37Rv | inhibition | 12.5 µg/mL | BACTEC |  | 70%
c1ccc2c(c1)ccc1c3ccccc3[nH]c21 | H37Rv | MIC |  |  |  | 100 µg/mL
NNC(=O)c1cnccn1 | H37Rv | inhibition | 12.5 µg/mL | BACTEC |  | 0%
C[C@H](NCCNC1CCCCCCC1)C1CCCCC1 |  | MIC |  |  |  | 50 µM
O=[N+]([O-])c1ccc(OCC(O)COc2ccc([N+](=O)[O-])cc2)cc1 | H37Rv | MIC |  |  |  | 100 µg/mL
Clc1ccc(CCNCCNCCCc2ccccc2)c(Cl)c1 |  | MIC |  |  |  | 25 µM
COc1ccc(OC)c(Cc2cnc3nc(N)nc(N)c3c2C)c1 | H37Rv | MIC |  |  | VERO | 3.13 µg/mL
CC1CCCC(NCCNC[C@@H]2CC[C@H]3C[C@@H]2C3(C)C)C1C |  | MIC |  |  |  | 6.25 µM
Clc1nn2ccnc2c2cccnc12 | H37Rv | MIC bound |  | BACTEC |  | >12.5 µg/mL
O=C(O)c1cc([N+](=O)[O-])ccc1Cl | H37Rv | MIC |  |  |  | >100 µg/mL
CO[C@H]1/C=C/O[C@@]2(C)Oc3c(C)c(O)c4c(=O)c(c5oc6cc(N7CCN(CC(C)C)CC7)cc(=O)c6nc5c4c3=C2O)NC(=O)/C(C)=C\C=C\[C@H](C)[C@H](O)[C@@H](C)[C@@H](O)[C@@H](C)[C@H](OC(C)=O)[C@@H]1C | 2219 (rifampin-resistant) | MIC |  |  |  | 0.1 µg/mL